Test results taken from article PMC7942396, “Drug Repurposing Screen for Compounds Inhibiting the Cytopathic Effect of SARS-CoV-2” (Frontiers in Pharmacology, 2021).
Where a name gives a salt, the structure may show the parent alone.

System: Vero E6 cells
Experiment: not given
Settings: read-out: Cytotox CC50; cytotoxicity counter-assay, Vero E6 cells without virus

Compound | CC50 [µM]
CCc1cc(-c2n[nH]c(C)c2-c2ccc3c(c2)OCCO3)c(O)cc1O [CCT-018159] | 14.1
Cn1ncc2cc(-c3cnc(N)c(Cl)c3N3CCC4(CCNC4=O)CC3)ccc21 [CCT-251921] | 14.1
O=C1NC(=O)/C(=C/c2cccc(C(F)(F)F)c2)S1 [SMI-4a] | 14.1

System: not listed separately
Experiment: in vitro
Settings: African green monkey

Compound | CC50 at 72 h [µM] | CC50 [µM]
CC(/C=C/[C@@H]1C[C@]1(C)c1ccc2c(c1)C(C)(C)CCC2(C)C)=C\C(=O)O [AGN-194204] | 14.1 | 
Clc1ccc2c(c1)C(N1CCNCC1)=Nc1ccccc1O2 [Amoxapine] |  | 14.1
COc1ccc2c(c1)[C@]1(C[C@H]1c1ccc3c(/C=C/c4ccc(CN5C[C@@H](C)O[C@@H](C)C5)cc4)n[nH]c3c1)C(=O)N2 [CFI-400945] | 14.1 | 
CN(C)CCCN1c2ccccc2CCc2ccc(Cl)cc21 [Clomipramine hydrochloride] |  | 14.1
CN(C)CCC=C1c2ccccc2C=Cc2ccccc21 [Cyclobenzaprine hydrochloride] |  | 14.1
O=C1Nc2ccc(Cl)cc2[C@@](C#CC2CC2)(C(F)(F)F)O1 [Efavirenz] |  | 14.1
Oc1ccc(-c2nc(-c3ccncc3)c(-c3ccc(F)cc3)[nH]2)cc1 [SB-202190] | 14.1 | 
